Results deposited as PubChem BioAssay AID624099 (ICCB-Longwood, 2012).
The whole screen tested about 21,000 reagents; below is a part drawn at random. Of all reagents, 497 (2.4%) are marked active. 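Higher z means weaker E2 silencing; only reporter increases were scored, and knock-downs that hurt cell survival may mask genuine repressor factors.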

Purpose: 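Knock-downs relieving repression by E2 of an HPV18 LCR luciferase reporter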 (primary screen)
Cell system: human C33A cervical carcinoma cells (HPV-negative) stably expressing BPV1 E2 and an HPV18 LCR luciferase reporter
Knock-down reagent: siRNA pool against human genes, 40 nM
Timing: 72 h
Detection: 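Per-well luciferase luminescence, z-scored on each plate against the plate mean and SD with control wells left out, then averaged across three replicate plates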
Direction: mean z-score and z-score: higher = stronger reporter signal, weaker E2 silencing
Hit rule: 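Mean z ≥ 2 together with z ≥ 2 in two or more of the three replicates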

gene	PubChem SID	mean z-score	z-score, replicate A	z-score, replicate B	z-score, replicate C	Call
CT83	SID134326129	-1.21	-1.28	-0.92	-1.44	inactive
SIRPD	SID134321699	0.07	0.03	0	0.16	inactive
EIF1AD	SID134322071	0.55	0.66	0.49	0.5	inactive
LOC219638 (retired record)	SID134326664	0.43	0.35	0.56	0.4	inactive
RSPO2	SID134321790	-0.53	-0.83	-0.04	-0.71	inactive
RIDA	SID134323796	1.15	1.5	1.18	0.78	inactive
HNRNPH3	SID134316712	0.68	0.58	0.78	0.68	inactive
LOC340511 (retired record)	SID134326461	-1.32	-1.07	-1.74	-1.16	inactive
LOC729897 (retired record)	SID134325511	-0.38	-0.08	-1.09	0.04	inactive
ALG14	SID134320972	-0.81	-0.89	-1.16	-0.39	inactive
ATP10A	SID134319910	-0.74	-0.93	-0.78	-0.52	inactive
C7orf25	SID134318448	0.3	-0.03	0.11	0.82	inactive
PLPP6	SID134329285	-0.13	-0.37	-0.21	0.2	inactive
SPAG9	SID134321397	0.79	0.55	0.82	1	inactive
LOC389239 (retired record)	SID134327435	0.06	0.43	-0.4	0.15	inactive
WHAMM	SID134325390	1.63	1.45	1.82	1.63	inactive
LOC284600	SID134329228	0.37	0.52	-0.04	0.61	inactive
HSPBAP1	SID134310365	0.1	0.27	-0.11	0.14	inactive
MORC3	SID134317219	0.75	0.64	0.64	0.98	inactive
SIGLEC10	SID134322051	-0.46	-0.68	-0.12	-0.57	inactive
SPDEF	SID134323930	-0.26	0.06	-0.22	-0.62	inactive
MRPS33	SID134317188	-0.23	-0.11	-0.27	-0.33	inactive
KAZN	SID134325304	-0.99	-1.05	-1.09	-0.84	inactive
KAZN	SID134326909	0.78	1.15	0.48	0.7	inactive
LOC400197 (retired record)	SID134328475	0.37	0.36	0.36	0.38	inactive
CKAP2L	SID134322679	0.22	0.05	0.27	0.34	inactive
HNRNPA3P4	SID134327701	0.77	0.54	0.85	0.92	inactive
PCCB	SID134314532	2.12	2.27	1.83	2.26	active
LINC00469	SID134322754	-0.03	0.69	-0.61	-0.17	inactive
PRKAR2A	SID56479178	-1.51	-1.48	-1.4	-1.66	inactive
TH	SID134313878	-0.41	-0.31	-0.63	-0.28	inactive
GPX7	SID134314572	-1.17	-0.9	-1.19	-1.42	inactive
TINAGL1	SID134313249	-1.15	-1.12	-0.65	-1.69	inactive
XPNPEP3	SID134311357	-0.17	-0.17	-0.57	0.24	inactive
OR10G2	SID134329917	-0.06	-0.39	0.16	0.03	inactive
PRRT4	SID134327809	0.81	0.83	1.02	0.59	inactive
PRRT4	SID134327899	0.65	0.65	0.58	0.71	inactive
PVALEF	SID134329545	0.15	0.06	0.16	0.23	inactive
PPP3CC	SID134314659	0.03	-0.02	-0.04	0.16	inactive
PCGF1	SID134312217	-1.06	-1.01	-1.08	-1.09	inactive
MRPS35	SID134317310	-1.05	-1.28	-1.28	-0.57	inactive
TP53I11	SID134323236	-0.59	-0.32	-0.71	-0.76	inactive
KLK12	SID134311336	2.15	2.29	2.1	2.06	active
OR10G8	SID134326589	0.42	0.57	0.81	-0.12	inactive
DDX55	SID134326730	0.36	0.23	0.71	0.14	inactive
CLN3	SID134323084	-0.56	-0.54	-0.74	-0.39	inactive
LPAL2	SID134317206	-0.47	-0.25	-0.61	-0.54	inactive
UBE2E2	SID134329290	0.1	0.18	0.2	-0.09	inactive
UBA3	SID134310830	0.86	1.34	0.61	0.64	inactive
RASEF	SID134320747	-0.08	0.23	-0.12	-0.34	inactive
PI15	SID134317370	0.28	0.06	0.13	0.65	inactive
HMCES	SID134324052	0.6	0.36	0.69	0.76	inactive
ICOS	SID134316680	0.77	0.55	0.98	0.77	inactive
ALS2	SID134318344	-0.46	-0.6	-0.46	-0.34	inactive
H2BC15	SID134315777	-1.33	-1.55	-1.42	-1.03	inactive
PTPRE	SID134313000	-1.64	-1.69	-1.65	-1.59	inactive
CLDN23	SID134323123	1.62	1.3	1.81	1.74	inactive

9 of these entries in another layout:
HSPBAP1 [SID134310365] → mean z-score = 0.1; z-score, replicate A = 0.27; z-score, replicate B = -0.11; z-score, replicate C = 0.14; Call = inactive
MORC3 [SID134317219] → mean z-score = 0.75; z-score, replicate A = 0.64; z-score, replicate B = 0.64; z-score, replicate C = 0.98; Call = inactive
SIGLEC10 [SID134322051] → mean z-score = -0.46; z-score, replicate A = -0.68; z-score, replicate B = -0.12; z-score, replicate C = -0.57; Call = inactive
SPDEF [SID134323930] → mean z-score = -0.26; z-score, replicate A = 0.06; z-score, replicate B = -0.22; z-score, replicate C = -0.62; Call = inactive
MRPS33 [SID134317188] → mean z-score = -0.23; z-score, replicate A = -0.11; z-score, replicate B = -0.27; z-score, replicate C = -0.33; Call = inactive
KAZN [SID134325304] → mean z-score = -0.99; z-score, replicate A = -1.05; z-score, replicate B = -1.09; z-score, replicate C = -0.84; Call = inactive
KAZN [SID134326909] → mean z-score = 0.78; z-score, replicate A = 1.15; z-score, replicate B = 0.48; z-score, replicate C = 0.7; Call = inactive
LOC400197 (retired record) [SID134328475] → mean z-score = 0.37; z-score, replicate A = 0.36; z-score, replicate B = 0.36; z-score, replicate C = 0.38; Call = inactive
CKAP2L [SID134322679] → mean z-score = 0.22; z-score, replicate A = 0.05; z-score, replicate B = 0.27; z-score, replicate C = 0.34; Call = inactive
